Anti-infective test results gathered from many reports (values: NIAID ChemDB through PubChem).

All rows: tests in culture; species: HIV-1; method: syncytia; endpoint: EC50

An empty or dashed field is not shown. ECn is the concentration giving n% inhibition of infection, replication or growth. Neighbouring rows are from separate reports.

smiles | strain | changes | cells | result
Cc1occc1C(=S)Nc1ccc(Cl)c(/C=N/OC(C)(C)C)c1 | IIIB | RT-Y188H | CEM | 0.64 µM
CC1=C(C(=O)Nc2cccc(C(=O)OC(C)C)c2)SCCO1 | IIIB | - | CEM | 4 µg/mL
CC(C)OC(=S)Nc1ccc(Cl)c(C(=O)OCc2ccccc2)c1 | - | RT-E138K | CEM | 1.786 µM
Cc1ccc(C)c(CS(=O)c2ccc(Cl)c[n+]2[O-])c1 | IIIB | RT-K103N | CEM | 9 µg/mL
CCC(CC)OC(=O)c1cc(NC(=S)OC(C)C)ccc1Cl | - | RT-E138K | CEM | 1.745 µM
CC1=C(C(=O)Nc2cc(Cl)cc(C(=O)OC(C)C)c2)SCCO1 | Nevirapine-resistant (RT V106A) | RT-V106A | CEM | 5 µg/mL
C=CCOC(=O)c1cc(NC(=S)OC(C)C)ccc1Cl | - | RT-E138K | CEM | 0.4451 µM
CCOCn1c(Cc2ccccc2)c(C(C)C)c(=O)[nH]c1=O | IIIB | RT-E138K | CEM | 0.06 µM
O=[N+]([O-])c1ccc[n+]([O-])c1SCc1ccccc1 | HE | - | CEM | 10 µg/mL
CC(C)O/N=C/c1cc(NC(=S)OC(C)C)ccc1Cl | - | RT-L100I | CEM | 0.6366 µM
COC(=O)Oc1ccc(NC(=O)C2=C(C)OCCS2)cc1C(=O)OC(C)C | TSAO-resistant (RT E138K) | RT-E138K | CEM | >10 µg/mL
CC(C)OC(=O)Oc1cc(NC(=S)OC(C)C)ccc1Cl | - | RT-L100I | CEM | 21.1 µM
Cc1cc(C)c(CS(=O)c2cccc[n+]2[O-])c(C)c1 | IIIB | RT-E138K | CEM | 10 µg/mL
CC1=C(C(=O)Nc2ccc(F)c(C(=O)OC(C)C)c2)SCCO1 | PYR-resistant (RT Y181C) | RT-Y181C | CEM | >10 µg/mL
CCOCn1c(Sc2ccccc2)c(C(C)C)c(=O)[nH]c1=O | IIIB TIBO R82913-resistant (RT K103N) | RT-K103N | CEM | 5 µM
CCOC(=O)c1cc(NC(=O)C2=C(CC)OCCS2)ccc1Cl | PYR-resistant (RT Y181C) | RT-Y181C | CEM | 7 µg/mL
COc1ccc(NC(=S)OC(C)C)cc1CC(=O)OC(C)C | - | RT-E138K | CEM | 0.184 µM
Cc1ccc(C)c(C(C)S(=O)(=O)c2c(C)ccc[n+]2[O-])c1 | IIIB | - | C8166 | 0.1 µg/mL
CC1=C(C(=O)Nc2cc(C(=O)OC(C)C)c(F)cc2F)SCCO1 | PYR-resistant (RT Y181C) | RT-Y181C | CEM | >10 µg/mL
CC(=O)COc1cc(NC(=S)OC(C)C)ccc1Cl | - | RT-V106A | CEM | 16.57 µM
Cc1sccc1C(=S)Nc1ccc(Cl)c(OCC=C(Cl)Cl)c1 | TIBO R82150-resistant (RT L100I) | RT-L100I | CEM | 0.065 µg/mL
CC(C)c1c(Sc2ccccc2)n(COCc2ccccc2)c(=O)[nH]c1=O | IIIB TIBO R82913-resistant (RT K103N) | RT-K103N | CEM | 0.75 µM
CCC(C)OC(=S)Nc1ccc(Cl)c(C(=O)OC(C)(C)C)c1 | - | RT-L100I | CEM | 1.89 µM
CC1=C(C(=O)Nc2ccc(Cl)c(C(=O)OC3CCCC3)c2)SCCO1 | IIIB | - | CEM | 0.02 µg/mL
Cc1cc(C)cc(Sc2c(C(C)C)c(=O)[nH]c(=S)n2COCCO)c1 | IIIB | RT-Y181I | CEM | 10 µM
Cc1ccc(C)c(C(Cl)S(=O)(=O)c2cc(C)cc[n+]2[O-])c1 | MN | - | CEM | ≥4 µg/mL
CCOCn1c(Sc2cc(C)cc(C)c2)c(CC)c(=O)[nH]c1=O | IIIB | RT-Y188H | CEM | 8.9 µM
CC1=C(C(=O)Nc2ccc(Cl)c(OCC=C(Cl)Cl)c2)SCCO1 | Nevirapine-resistant isolate (RT V106A) | RT-V106A | CEM | 2 µg/mL
Cc1cccc(CS(=O)(=O)c2cccc[n+]2[O-])c1 | HE | - | CEM | 10 µg/mL
COc1ccc(NC(=S)c2ccsc2C)cc1OCC=C(Cl)Cl | Nevirapine-resistant isolate (RT V106A) | RT-V106A | CEM | 0.09 µg/mL
CCCC1=C(C(=O)Nc2ccc(Cl)c(C(=O)OC)c2)SCCO1 | TIBO-resistant (RT L100I) | RT-L100I | CEM | 6.5 µg/mL
O=S(=O)(Cc1ccccc1I)c1cccc[n+]1[O-] | IIIB | RT-K103N | CEM | 9 µg/mL
CC(C)OC(=S)Nc1ccc(Cl)c(C(=O)OC2(C)COC2)c1 | - | RT-Y181C | CEM | 1.454 µM
CCSCC1=C(C(=O)Nc2ccc(Cl)c(C(=O)OC(C)C)c2)SCCO1 | PYR-resistant (RT Y181C) | RT-Y181C | CEM | >10 µg/mL
COCCOC(=S)Nc1ccc(Cl)c(C(=O)OC(C)C)c1 | - | RT-L100I | CEM | 18.08 µM
C/C(Cl)=C/COc1cc(NC(=O)c2ccoc2C)ccc1Cl | IIIB | - | CEM | 0.045 µg/mL
CCC(C)OC(=O)c1cc(NC(=S)OC(C)C)ccc1Cl | - | RT-L100I | CEM | 1.819 µM
CC1=C(C(=O)Nc2ccc(Cl)c(C(=O)OC(C)C)c2)SCCO1 | IIIB | RT-Y188H | CEM | 2.8 µM
COc1ccc(NC(=S)c2ccoc2C)cc1OCC=C(Cl)Cl | TIBO R82150-resistant (RT L100I) | RT-L100I | CEM | 0.075 µg/mL
CC1=C(C(=O)Nc2ccc(Cl)c(C(=O)OC(C)C)c2)SCCO1 | - | RT-V106A | CEM | >56.2 µM
Cc1ccc(C)c(CS(=O)(=O)c2ccccn2)c1 | IIIB | - | C8166 | 4 µg/mL
Cc1occc1C(=S)Nc1ccc(Cl)c(SCC=C(Cl)Cl)c1 | IIIB | - | CEM | 0.005 µg/mL
Cc1cc(C)cc(Cc2c(C(C)C)c(=O)[nH]c(=O)n2COCCO)c1 | IIIB | RT-Y181C | CEM | 3.4 µM
CN1C(=O)C(c2cc(Cl)c(O)c(Cl)c2)NC(=O)[C@@H]2NC(=O)C(c3cc(Cl)c(O)c(Cl)c3)NC(=O)[C@H](NC(=O)C(=O)c3cc(Cl)c(O)c(Cl)c3)Cc3c[nH]c4c(cccc34)-c3cc2cc(c3O)Oc2ccc(cc2)CC1C(=O)NC(C(=O)O)c1ccc(O)cc1 | - | - | MOLT-4 | 1.1 µM
CSCCOC(=S)Nc1ccc(Cl)c(C(=O)OC(C)C)c1 | - | RT-Y181C | CEM | 17.25 µM
CC(C)c1c(Sc2ccccc2)n(COCc2ccccc2)c(=S)[nH]c1=O | IIIB (TIBO 82150) (RT-L100I) | RT-L100I | CEM | 0.01 µM
C/C(Cl)=C/COc1cc(NC(=S)c2ccoc2C)ccc1Cl | HEPT-resistant (RT Y188H) | RT-Y188H | CEM | 0.9 µg/mL
COC(=S)Nc1ccc(Cl)c(C(=O)OC(C)C)c1 | - | RT-L100I | CEM | ≥34.75 µM
Cc1occc1C(=S)Nc1ccc(Cl)c(/C=N/OC(C)(C)C)c1 | IIIB | RT-E138K | CEM | 0.214 µM
Cc1ccc(C)c(CSc2c(Cl)ccc[n+]2[O-])c1 | MN | - | CEM | 0.4 µg/mL
CC1=C(C(=O)Nc2ccc(Cl)c(C(=O)OC(C)C)c2)SCCO1 | IIIB | RT-V106A | CEM | >61 µM
CCCCC(CC)COC(=O)c1cc(NC(=S)OC(C)C)ccc1Cl | - | RT-V106A | CEM | 25.91 µM
COc1ccc(NC(=O)c2ccoc2C)cc1OCC=C(Cl)Cl | HEPT-resistant (RT Y188H) | RT-Y188H | CEM | 10 µg/mL
CC(C)OC(=S)Nc1ccc(Cl)c(C(=O)SC(C)C)c1 | IIIB | - | CEM | 0.06 µM
CCOCn1c(Sc2ccccc2)c(CC)c(=O)[nH]c1=S | IIIB | RT-Y181I | CEM | 3.1 µM
CCCSC(=Nc1ccc(Cl)c(C(=O)OC(C)C)c1)OC(C)C | - | RT-V106A | CEM | >27.78 µM
C=C(Cl)COc1cc(NC(=S)c2ccoc2C)ccc1C | Pyridone-resistant (RT Y181C) | RT-Y181C | CEM | 1.47 µg/mL
CCCOC(=S)Nc1ccc(Cl)c(C(=O)OC(C)C)c1 | IIIB | - | CEM | 0.158 µM
CCOCn1c(Sc2ccccc2)c(C(C)C)c(=O)[nH]c1=S | IIIB | RT-Y181C | CEM | 0.89 µM

Again, the opening 4 rows:

smiles	strain	changes	cells	result
Cc1occc1C(=S)Nc1ccc(Cl)c(/C=N/OC(C)(C)C)c1	IIIB	RT-Y188H	CEM	0.64 µM
CC1=C(C(=O)Nc2cccc(C(=O)OC(C)C)c2)SCCO1	IIIB	-	CEM	4 µg/mL
CC(C)OC(=S)Nc1ccc(Cl)c(C(=O)OCc2ccccc2)c1	-	RT-E138K	CEM	1.786 µM
Cc1ccc(C)c(CS(=O)c2ccc(Cl)c[n+]2[O-])c1	IIIB	RT-K103N	CEM	9 µg/mL